Measured values from several laboratories, pooled; numbers as filed in NIAID ChemDB.

All rows: tests in culture; organism: Candida albicans; measure: MIC

An empty or dashed field is not shown.

CS(=O)(=O)N1CCC(n2cc(-c3nc(-c4ccccc4)n[nH]3)nn2)CC1 ; method: agar ; value: 20 µg/mL
CC1=C[C@H]2C(=O)OC3C[C@@H](C/C=C(\C)C[C@@H](C)/C=C/C=C4\CO[C@H](/C1=N\O)[C@@]42O)O[C@@]1(CC[C@H](C)[C@@H](C)O1)C3 ; strain: SC5314 ; method: broth dilution / agar diffusion ; value: 25.6 µg/mL
C[C@@H]1CC(=O)N(c2ccc(F)cc2F)C1=O ; strain: ATCC 10231 ; method: broth dilution / turbidity ; value: 62.5 µg/mL
N#Cc1c(-c2cccc(F)c2)cc(-c2cc3cc(F)ccc3oc2=O)nc1NS(=O)(=O)c1ccccc1 ; strain: MTCC 227 ; method: turbidity ; value: 500 µg/mL
COc1cc(O)c2c(=O)c(-c3ccc(O)cc3)coc2c1Cl ; method: agar diffusion / agar ; value: 23–35 µM
N#Cc1c(-c2cccc([N+](=O)[O-])c2)cc(-c2cc3cc(F)ccc3oc2=O)nc1NS(=O)(=O)c1ccccc1 ; strain: MTCC 227 ; method: turbidity ; value: 1000 µg/mL
Fc1ccc(CN(CCn2cncn2)CCn2cncn2)c(F)c1 ; method: visual reading / absorbance ; value: 64 µg/mL
CC1(C)C(O)CC[C@@]2(C)C1CC[C@]1(C)C2[C@H](O)C=C2C3C[C@@](C)(C(=O)O)CC[C@]3(C)CC[C@]21C ; method: absorbance ; value: 63 µg/mL
CCCCC1C(=O)N(c2ccccc2)N(c2ccc(O)cc2)C1=O ; strain: ATCC 90028 ; method: resazurin ; value: >100 µM
COc1cc(/C=N/O)ccc1OP1(Oc2ccc(/C=N/OC(=O)c3cccs3)cc2OC)=NP(Oc2ccc(/C=N/O)cc2OC)(Oc2ccc(/C=N/OC(=O)c3cccs3)cc2OC)=NP(Oc2ccc(/C=N/OC(=O)c3cccs3)cc2OC)(Oc2ccc(/C=N/OC(=O)c3cccs3)cc2OC)=N1 ; method: agar diffusion / agar ; value: 75 µg/mL
c1ccc(-c2n[nH]c(-c3cn(C4CCNCC4)nn3)n2)cc1 ; method: agar ; value: 50 µg/mL
COc1cc(/C=N/O)ccc1OP1(Oc2ccc(/C=N/OCc3ccccc3)cc2OC)=NP(Oc2ccc(/C=N/O)cc2OC)(Oc2ccc(/C=N/OCc3ccccc3)cc2OC)=NP(Oc2ccc(/C=N/O)cc2OC)(Oc2ccc(/C=N/OCc3ccccc3)cc2OC)=N1 ; method: agar diffusion / agar ; value: >100 µg/mL
CC1CC(=O)N(c2ccccc2)C1=O ; strain: ATCC 10231 ; method: broth dilution / turbidity ; value: 125 µg/mL
CCOC(=O)N1CCN(C(=S)Nc2nc(N3CCN(CC)CC3)c3ccccc3n2)CC1 ; strain: MTCC 183 ; method: agar / visual reading ; value: 100 µg/mL
COc1cc(/C=N/O)ccc1OP1(Oc2ccc(/C=N/O)cc2OC)=NP(Oc2ccc(/C=N/O)cc2OC)(Oc2ccc(/C=N/O)cc2OC)=NP(Oc2ccc(/C=N/O)cc2OC)(Oc2ccc(/C=N/O)cc2OC)=N1 ; method: agar diffusion / agar ; value: >100 µg/mL
C=C1CC[C@H]2C[C@@H]1C2(C)C ; strain: ATCC 10231 ; method: agar diffusion / agar ; value: >20000 µg/mL
COc1cc(/C=N/OC(=O)CCl)ccc1OP1(Oc2ccc(/C=N/OC(=O)CCl)cc2OC)=NP(Oc2ccc(/C=N/OC(=O)CCl)cc2OC)(Oc2ccc(/C=N/OC(=O)CCl)cc2OC)=NP(Oc2ccc(/C=N/OC(=O)CCl)cc2OC)(Oc2ccc(/C=N/OC(=O)CCl)cc2OC)=N1 ; method: agar diffusion / agar ; value: >100 µg/mL
CN(C)C(=S)N(C)C ; strain: MTCC 183 ; method: visual reading ; value: 250 µg/mL
CCN1CCN(c2nc(NC(=S)N3CCN(C)C(c4ccccc4)C3)nc3ccccc23)CC1 ; strain: MTCC 183 ; method: agar / visual reading ; value: 400 µg/mL
CC1=C[C@@]2(C)C(=O)OC3C[C@@H](C/C=C(\C)C[C@@H](C)/C=C/C=C4\CO[C@H](C1O)[C@@]42O)O[C@@]1(CC[C@H](C)[C@@H](C)O1)C3 ; strain: SC5314 ; method: broth dilution / agar diffusion ; value: 6.4 µg/mL
CC(C)(O)c1cn(-c2ccc(Cl)cc2)nn1 ; strain: URM 4388 ; method: broth dilution ; value: 128 µg/mL
CC(=O)N1CCN(c2ccc(OC[C@H]3CO[C@](Cn4ccnc4)(c4ccc(Cl)cc4Cl)O3)cc2)CC1 ; strain: B311 ; method: visual reading ; value: 64 µg/mL
CC1=CC[C@H]2C[C@@H]1C2(C)C ; strain: ATCC 10231 ; method: agar diffusion / agar ; value: 3125 µg/mL
C[n+]1c2ccc(Cl)cc2cc2[nH]c3ccccc3c21 ; strain: ATCC 90028 ; method: resazurin ; value: >5.5 µg/mL
COc1cc(/C=N/OC(C)=O)ccc1OP1(Oc2ccc(/C=N/OC(C)=O)cc2OC)=NP(Oc2ccc(/C=N/OC(C)=O)cc2OC)(Oc2ccc(/C=N/OC(C)=O)cc2OC)=NP(Oc2ccc(/C=N/OC(C)=O)cc2OC)(Oc2ccc(/C=N/OC(C)=O)cc2OC)=N1 ; method: agar diffusion / agar ; value: >100 µg/mL
C[C@H]1[C@H](O)[C@@H](C)/C=C/C=C/C=C/C=C/C=C/C=C/C=C/[C@H](O[C@@H]2O[C@H](C)[C@@H](O)[C@H](N)[C@@H]2O)C[C@@H]2O[C@](O)(C[C@@H](O)C[C@@H](O)CC[C@H](O)[C@@H](O)C[C@@H](O)CC(=O)O[C@H]1C)C[C@H](O)[C@H]2C(=O)O ; method: broth dilution / resazurin ; value: 0.98 µg/mL
CCN1CCN(c2nc(NN=C3SCC(=O)N3c3ccccc3)nc3ccccc23)CC1 ; strain: MTCC 183 ; method: agar / visual reading ; value: 12.5 µg/mL
COc1ccc(Br)cc1/C=N/NC(=O)Cc1cc2ccccc2cc1O ; method: MTT ; value: >150 µM
COc1cc(/C=N/O)ccc1OP1(Oc2ccc(/C=N/OC(=O)c3ccccc3Cl)cc2OC)=NP(Oc2ccc(/C=N/O)cc2OC)(Oc2ccc(/C=N/OC(=O)c3ccccc3Cl)cc2OC)=NP(Oc2ccc(/C=N/OC(=O)c3ccccc3Cl)cc2OC)(Oc2ccc(/C=N/OC(=O)c3ccccc3Cl)cc2OC)=N1 ; method: agar diffusion / agar ; value: >100 µg/mL
c1ccc(-c2ccc(C(c3ccccc3)n3ccnc3)cc2)cc1 ; strain: B311 ; method: visual reading ; value: 8 µg/mL
CC(C)[C@@H](NC(=O)N[C@@H](CCCCN)CC(N)=O)NC(=O)[C@H]1CCCC[C@@H]1NC(=O)C[C@H](CCCCN)NC(=O)N[C@@H](NC(=O)[C@H]1CCCC[C@@H]1NC(=O)C[C@H](CCCCN)NC(=O)N[C@@H](NC(=O)[C@H]1CCCC[C@@H]1NC(=O)C[C@@H](N)Cc1ccc(O)cc1)C(C)C)C(C)C ; strain: SC5314 ; method: XTT / broth dilution ; value: 8 µg/mL
C[C@@H]1CC(=O)N(CCCCc2ccccc2)C1=O ; strain: ATCC 10231 ; method: broth dilution / turbidity ; value: 31.3 µg/mL
CCN1CCN(c2nc(Nc3ccc(C(=O)/C=C/c4ccco4)cc3)nc3ccccc23)CC1 ; strain: MTCC 183 ; method: agar / visual reading ; value: 3.12 µg/mL
CN1CCC(n2cc(-c3nc(-c4ccc(Cl)cc4)n[nH]3)nn2)CC1 ; method: agar ; value: 25 µg/mL
Clc1ccc(COC(Cn2ccnc2)c2ccc(Cl)cc2Cl)c(Cl)c1 ; strain: B311 ; method: visual reading ; value: 4 µg/mL
CC(=O)O[C@H]1CC[C@@]2(C)C(=CCC3C4CCC(C(=O)/C=C/c5ccc(F)cc5)[C@@]4(C)CCC32)C1 ; strain: MTCC 183 ; method: turbidity ; value: 300 µg/mL
N#Cc1c(-c2ccc([N+](=O)[O-])cc2)cc(-c2cc3cc(F)ccc3oc2=O)nc1NS(=O)(=O)c1ccccc1 ; strain: MTCC 227 ; method: turbidity ; value: 1000 µg/mL
C[C@@H]1[C@H](O)[C@@H](C)/C=C/C=C/C=C/C=C/C=C/C=C/C=C/[C@H](O[C@@H]2O[C@H](C)[C@@H](O)[C@H](N)[C@@H]2O)C[C@@H]2O[C@](O)(C[C@@H](O)C[C@@H](O)[C@H](O)CC[C@@H](O)C[C@@H](O)CC(=O)O[C@H]1C)C[C@H](O)[C@H]2C(=O)O ; strain: ATCC 90028 ; method: MTT ; value: 3 µg/mL
O=C(c1ccccc1)N1CCC(n2cc(-c3nc(-c4ccccc4)n[nH]3)nn2)CC1 ; method: agar ; value: 100 µg/mL
N=C(N)c1ccc(OCCCCCCOc2ccc(C(=N)N)cc2)cc1 ; strain: CA2 ; method: agar diffusion / agar ; value: 33 µg/mL
Cc1ccc(-c2cnc(Nc3cnc(OCCCN4CCN(C)CC4)nc3)c(C(N)=O)n2)c(F)c1 ; method: resazurin ; value: >32 µg/mL
CC[C@H](NC(=O)C[C@@H](NC(=O)C[C@H](CCCN=C(N)N)NC(=O)N[C@H](CC)NC(=O)C[C@@H](NC(=O)C[C@H](CCCN=C(N)N)NC(=O)N[C@H](CC)NC(=O)C[C@@H](NC(=O)C[C@@H](N)Cc1ccc(O)cc1)C(C)C)C(C)C)C(C)C)NC(=O)N[C@@H](CCCN=C(N)N)CC(N)=O ; strain: SC5314 ; method: XTT / broth dilution ; value: 128 µg/mL
N#Cc1c(-c2ccc(Cl)cc2)cc(-c2cc3cc(F)ccc3oc2=O)nc1NS(=O)(=O)c1ccccc1 ; strain: MTCC 227 ; method: turbidity ; value: 1000 µg/mL
COc1ccc(C2CC(Cc3ccc(CC(C)C)cc3)=Cc3[nH][nH]c(=O)c32)cc1 ; method: agar diffusion ; value: 200 µg/mL
N=C(N)c1ccc2nc(-c3ccc(-c4nc5ccc(C(=N)N)cc5[nH]4)[nH]3)[nH]c2c1 ; strain: Isolate 1 (strain 2-76) ; value: 0.78 µg/mL
CCOc1ccc(S(=O)(=O)N2CCN(c3ccccc3)CC2)cc1-c1nc2ncccc2c(=O)[nH]1 ; strain: ATCC 10231 ; method: agar diffusion / agar ; value: 62.5 µg/mL
CC1CC(=O)N(c2ccc(Br)cc2)C1=O ; strain: ATCC 10231 ; method: broth dilution / turbidity ; value: 250 µg/mL
O=c1[nH][nH]c2c1C(c1ccc(Cl)cc1)CC(Cc1ccc3ccccc3c1)=C2 ; method: agar diffusion ; value: 100 µg/mL
CCN1CCN(c2nc(NN=C3SCC(=O)N3c3ccccc3Cl)nc3ccccc23)CC1 ; strain: MTCC 183 ; method: agar / visual reading ; value: 25 µg/mL
CC(C)[C@@H](NC(=O)N[C@@H](CCCCN)CC(N)=O)NC(=O)[C@H]1CCCC[C@@H]1N ; strain: SC5314 ; method: XTT / broth dilution ; value: 8 µg/mL
CC(=O)O[C@H]1CC[C@@]2(C)C(=CCC3C4CCC(C(=O)/C=C/c5ccc(Cl)cc5Cl)[C@@]4(C)CCC32)C1 ; strain: MTCC 183 ; method: turbidity ; value: 500 µg/mL
Cc1ccc(C2CC(Cc3ccc(CC(C)C)cc3)=Cc3[nH][nH]c(=O)c32)cc1 ; method: agar diffusion ; value: 25 µg/mL
O=C(Cc1ccccc1F)N/N=C/c1cc([N+](=O)[O-])ccc1Cl ; method: MTT ; value: 75 µM
CC(C)Cc1ccc(CC2=Cc3[nH][nH]c(=O)c3C(c3ccc(Cl)cc3)C2)cc1 ; method: agar diffusion ; value: 25 µg/mL
CC(=O)O[C@H]1CC[C@@]2(C)C(=CCC3C4CCC(C(=O)/C=C/c5cc(F)cc(F)c5F)[C@@]4(C)CCC32)C1 ; strain: MTCC 183 ; method: turbidity ; value: 350 µg/mL
C/C(CC(=O)Nc1ccccc1C)=N\c1ncccc1O ; method: agar diffusion / agar ; value: 600 µg/mL

For reference, 8 entries again:

SMILES | strain | method | value
C[n+]1c2ccc(Cl)cc2cc2[nH]c3ccccc3c21 | ATCC 90028 | resazurin | >5.5 µg/mL
C=C1CC[C@H]2C[C@@H]1C2(C)C | ATCC 10231 | agar diffusion / agar | >20000 µg/mL
CC(=O)O[C@H]1CC[C@@]2(C)C(=CCC3C4CCC(C(=O)/C=C/c5ccc(Cl)cc5Cl)[C@@]4(C)CCC32)C1 | MTCC 183 | turbidity | 500 µg/mL
CC1CC(=O)N(c2ccc(Br)cc2)C1=O | ATCC 10231 | broth dilution / turbidity | 250 µg/mL
CC(C)(O)c1cn(-c2ccc(Cl)cc2)nn1 | URM 4388 | broth dilution | 128 µg/mL
COc1cc(/C=N/OC(C)=O)ccc1OP1(Oc2ccc(/C=N/OC(C)=O)cc2OC)=NP(Oc2ccc(/C=N/OC(C)=O)cc2OC)(Oc2ccc(/C=N/OC(C)=O)cc2OC)=NP(Oc2ccc(/C=N/OC(C)=O)cc2OC)(Oc2ccc(/C=N/OC(C)=O)cc2OC)=N1 |  | agar diffusion / agar | >100 µg/mL
COc1cc(/C=N/O)ccc1OP1(Oc2ccc(/C=N/OCc3ccccc3)cc2OC)=NP(Oc2ccc(/C=N/O)cc2OC)(Oc2ccc(/C=N/OCc3ccccc3)cc2OC)=NP(Oc2ccc(/C=N/O)cc2OC)(Oc2ccc(/C=N/OCc3ccccc3)cc2OC)=N1 |  | agar diffusion / agar | >100 µg/mL
CC1=C[C@H]2C(=O)OC3C[C@@H](C/C=C(\C)C[C@@H](C)/C=C/C=C4\CO[C@H](/C1=N\O)[C@@]42O)O[C@@]1(CC[C@H](C)[C@@H](C)O1)C3 | SC5314 | broth dilution / agar diffusion | 25.6 µg/mL

Neighbouring rows are from separate reports. Two numbers with a dash give a range or band.